A mixed list of measured activities; the numbers were collected in NIAID ChemDB.

All rows: host cell toxicity; cell line: MT-4; measure: CC50

An empty or dashed field is not shown. Neighbouring rows are from separate reports. CCn: concentration that lowers growth or viability of the cells by n%.

| compound | method | value |
|---|---|---|
| Cc1cnc(Nc2ccc(C#N)cc2)nc1Cc1c(F)cccc1F | MTT | >74.33 µM |
| Cc1cc(-c2ccc(C#N)cc2)cc(C)c1Oc1ccnc(S(=O)(=O)CC(=O)NC(C)c2ccc(Br)cc2)n1 | MTT | 3.21 µM |
| CN1CCn2c(nc(C(=O)NCc3ccc(F)cc3)c(O)c2=O)C12CCOCC2 | microscopy | >1 µM |
| CCOc1ccc(NC(=S)Nc2nc(NCCc3ccc(OC)c(OC)c3)nc(Oc3cc(=O)oc4ccccc34)n2)cc1 | MTT | 66.05 µg/mL |
| Cc1c(Cl)nc(Nc2ccc(C#N)cc2)nc1C(C)c1c(F)cccc1F | MTT | >13 µM |
| C=C(C)[C@@H]1CC[C@]2(C(=O)O)CC[C@]3(C)[C@H](CC[C@@H]4[C@@]5(C)CC[C@H](OC(=O)CC(C)(C)C(=O)O)C(C)(C)[C@@H]5CC[C@]43C)[C@@H]12 | - | 7.5 µM |
| Cc1cc(-c2ccc(C#N)cc2)cc(C)c1Oc1ccnc(S(=O)(=O)CC(=O)NCCc2ccc(Cl)cc2)n1 | MTT | 8.26 µM |
| CCOC(=O)CNc1nc(NC(=O)Nc2ccccc2OC)nc(Oc2cc(=O)oc3ccccc23)n1 | MTT | >125 µg/mL |
| CCc1c(Cc2cc(Cl)cc(Cl)c2)n(COCC=C(C)C)c(=O)[nH]c1=O | MTT | 35 µM |
| Cc1cn(CCCO[C@H]2C=C[C@@H](CO)O2)c(=O)[nH]c1=O | MTT | 20 µg/mL |
| C=CCOCn1c(Cc2cc(Cl)cc(Cl)c2)c(CC)c(=O)[nH]c1=O | MTT | 23 µM |
| C=C(C)[C@@H]1CC[C@]2(C(=O)N[C@H](CC(C)C)C(=O)O)CC[C@]3(C)[C@H](CC[C@@H]4[C@@]5(C)CC[C@H](OC(=O)C(C)(C)CC(=O)O)C(C)(C)[C@@H]5CC[C@]43C)[C@@H]12 | - | 9 µM |
| Cn1c(Sc2ccccc2)c([N+](=O)[O-])c(=O)n(C)c1=O | - | ≥81.2 µg/mL |
| Cc1cc(-c2ccc(C#N)cc2)cc(C)c1Oc1ccnc(S(=O)(=O)CC(=O)Nc2ccc(Cl)cc2)n1 | MTT | 7.41 µM |
| CCCC(C(=O)O)c1c(C)nc2ccc(Cl)cc2c1-c1ccccc1 | - | 59.8 µM |
| CCCn1c(Sc2ccncc2)c([N+](=O)[O-])c(=O)[nH]c1=O | - | 76.63 µg/mL |
| COc1ccc(/C=C/C(=O)c2ccccc2O)cc1OC | MTT | 388 µM |
| Cc1cc(-c2ccc(C#N)cc2)cc(C)c1Oc1ccnc(S(=O)(=O)C(C)C(=O)NCc2ccc(Br)cc2)n1 | MTT | 4.76 µM |
| COC(=O)C(C)(C)NP(=O)(OC[C@H]1C=C[C@@H](n2ccc3c(N)ncnc32)C1)Oc1ccccc1 | trypan blue | >10 µM |
| OC[C@H]1O[C@H](On2cnc3c(Cl)ncnc32)CS1 | - | >100 µg/mL |
| COC(=O)[C@H](Cc1ccccc1)NP(=O)(OC[C@H]1C=C[C@@H](n2ccc3c(N)ncnc32)C1)Oc1ccccc1 | trypan blue | 31.5 µM |
| Cc1cnc(Nc2ccc(C#N)cc2)nc1C(C)c1c(F)cccc1F | MTT | 71.4 µM |
| COc1ccccc1NC(=S)Nc1nc(NCCc2ccc(OC)c(OC)c2)nc(Oc2cc(=O)oc3ccccc23)n1 | MTT | 19.63 µg/mL |
| Nc1nc2c(ncn2OC2COC(CO)O2)c(=O)[nH]1 | - | >100 µg/mL |
| CCOC(=O)CNc1nc(Nc2ccc3ccccc3c2)nc(Oc2cc(=O)oc3ccccc23)n1 | MTT | 46.53 µg/mL |
| CC1(C)c2nc(C(=O)NCc3ccc(F)cc3)c(O)c(=O)n2CCN1Cc1cscn1 | microscopy | >1 µM |
| OC[C@H]1O[C@@H](On2cnc3c(Cl)ncnc32)CS1 | - | >100 µg/mL |
| Cc1ccc(-c2c(C)c3c(c(C)c2[C@H](OC(C)(C)C)C(=O)O)N(S(C)(=O)=O)Cc2cc(F)ccc2-3)cc1 | MTT | 19 µM |
| C=C(C)[C@@H]1CC[C@]2(C(=O)O)CC[C@]3(C)[C@H](CC[C@@H]4[C@@]5(C)CC[C@H](OC(=O)C(C)(C)CC(=O)O)C(C)(C)[C@@H]5CC[C@]43C)[C@@H]12 | - | 8 µM |
| COc1ccc(/C=C/C(=O)c2ccc(OC)cc2OC)cc1 | MTT | >400 µM |
| CCOC(=O)CNc1nc(Nc2ccc(Br)cc2)nc(Oc2cc(=O)oc3ccccc23)n1 | MTT | 51.28 µg/mL |
| Cc1cc(-c2ccc(C#N)cc2)cc(C)c1Oc1ccnc(S(=O)(=O)C(C)C(=O)Nc2ccc(Cl)cc2)n1 | MTT | 16.35 µM |
| OC[C@@H]1OC[C@@H](On2cnc3c(Cl)ncnc32)O1 | - | >100 µg/mL |
| CCCn1c(Sc2ccccc2)c([N+](=O)[O-])c(=O)[nH]c1=O | - | >72.9 µg/mL |
| CN1CCn2c(nc(C(=O)NCc3ccc(F)cc3)c(O)c2=O)C1COCc1ccccc1 | microscopy | >10 µM |
| Cc1ccc(-c2c(C)c3c(c(C)c2[C@H](OC(C)(C)C)C(=O)O)N(S(C)(=O)=O)Cc2cccc(F)c2-3)cc1 | MTT | 17 µM |
| Cc1cc(-c2ccc(C#N)cc2)cc(C)c1Oc1ccnc(S(=O)(=O)CC(=O)Nc2ccc(F)cc2)n1 | MTT | 9.15 µM |
| C=C(C)[C@@H]1CC[C@]2(C(=O)NCCCCCCCC(=O)N[C@@H](CC(C)C)C(=O)O)CC[C@]3(C)[C@H](CC[C@@H]4[C@@]5(C)CC[C@H](OC(=O)CC(C)(C)C(=O)O)C(C)(C)[C@@H]5CC[C@]43C)[C@@H]12 | - | >10 µM |
| CCOC(=O)CNc1nc(NC(=O)Nc2ccc(C)cc2)nc(Oc2cc(=O)oc3ccccc23)n1 | MTT | 11.27 µg/mL |
| O=c1c([N+](=O)[O-])c(Sc2ccccc2)nc2[nH]c(-c3ccccc3)cn12 | - | 2.56 µg/mL |
| O=C(/C=C/c1ccc(F)cc1)c1ccccc1O | MTT | 80.73 µM |
| c1ccc(COC[C@H]2O[C@H](O[C@H]3[C@H](OCc4ccccc4)[C@H](OCc4ccccc4)[C@@H]4OC[C@H]3O4)[C@H](OCc3ccccc3)[C@@H](OCc3ccccc3)[C@H]2OCc2ccccc2)cc1 | MTT | >200 µg/mL |
| S=C(NCCc1ccccc1)Nc1nccs1 | - | >100 µg/mL |
| Nc1ncnc2c1ncn2O[C@H]1CO[C@@H](CO)O1 | - | >100 µg/mL |
| Cc1cc(/C=C/C#N)cc(C)c1Oc1ccnc(S(=O)(=O)CC(=O)NCc2ccc(F)cc2)n1 | MTT | 5.29 µM |
| C=C(C)COCn1c(Cc2cc(Cl)cc(Cl)c2)c(CC)c(=O)[nH]c1=O | MTT | 25 µM |
| C=C(C)[C@@H]1CC[C@]2(C(=O)NCCCCCCCC(=O)O)CC[C@]3(C)[C@H](CC[C@@H]4[C@@]5(C)CC[C@H](OC(=O)CC(C)(C)C(=O)O)C(C)(C)[C@@H]5CC[C@]43C)[C@@H]12 | - | >10 µM |
| CCc1c(Cc2ccc(Cl)cc2)n(COCc2ccccc2)c(=O)[nH]c1=O | - | >100 µM |
| C=C(C)[C@@H]1CC[C@]2(C(=O)N[C@@H](CC(C)C)C(=O)O)CC[C@]3(C)[C@H](CC[C@@H]4[C@@]5(C)CC[C@H](OC(=O)C(C)(C)CC(=O)O)C(C)(C)[C@@H]5CC[C@]43C)[C@@H]12 | - | 12 µM |
| N#Cc1ccc(Nc2nccc(Cc3c(F)cccc3F)n2)cc1 | MTT | >77.6 µM |
| COC(=O)C(C)(C)NP(=O)(OC[C@@H]1C=C[C@H](n2ccc3c(N)ncnc32)C1)Oc1ccccc1 | trypan blue | 490 µM |
| C=C(C)[C@@H]1CC[C@]2(C(=O)NCCCCCCCNC(C)=O)CC[C@]3(C)[C@H](CC[C@@H]4[C@@]5(C)CC[C@H](O)C(C)(C)[C@@H]5CC[C@]43C)[C@@H]12 | - | >10 µM |
| CC(c1cc(=O)[nH]c(Nc2ccc(C#N)cc2)n1)c1c(F)cccc1F | MTT | >2.838 µM |
| Cc1cc(-c2ccc(C#N)cc2)cc(C)c1Oc1ccnc(S(=O)(=O)CC(=O)NCc2ccc(F)cc2)n1 | MTT | 6.41 µM |
| CC(=O)N(CC1CCCCC1)C1CN(C)CCn2c1nc(C(=O)NCc1ccc(F)cc1)c(O)c2=O | microscopy | >1 µM |
| CCc1c(Cc2cc(Cl)cc(Cl)c2)n(COC2Cc3ccccc3C2)c(=O)[nH]c1=O | MTT | 30 µM |
| Nc1nc2c(ncn2[C@H]2C=C[C@@H](OCP(=O)(O)O)C2)c(=O)[nH]1 | - | 153 µM |
| Nc1nc(Sc2ccccc2)c([N+](=O)[O-])c(=O)[nH]1 | - | 88.07 µg/mL |
| O=S(=O)(O)c1cc(Cl)cc(Cc2cc(Cl)cc(S(=O)(=O)O)c2O)c1O | - | >100 µg/mL |
| CC(C)CN(C(=O)C(=O)N(C)C)C1CN(C)CCn2c1nc(C(=O)NCc1ccc(F)cc1)c(O)c2=O | microscopy | >1 µM |
| CCOC(=O)CNc1nc(Nc2ccccc2)nc(Oc2cc(=O)oc3ccccc23)n1 | MTT | 61.15 µg/mL |
| COc1ccc(/C=C/C(=O)c2ccc(OC)cc2O)cc1 | MTT | 192 µM |
| O=c1[nH]cnc2c1ncn2O[C@@H]1CO[C@@H](CO)O1 | - | >100 µg/mL |
| C#CCOCn1c(Cc2cc(Cl)cc(Cl)c2)c(CC)c(=O)[nH]c1=O | MTT | 27 µM |